Anti-infective test results gathered from many reports (values: NIAID ChemDB through PubChem).

All rows: whole-cell or culture tests; species: Candida albicans; endpoint: Mean MIC

Rows are shuffled and stem from different studies.

structure	strain	result
c1ccc(-c2c[nH]cc2C(c2cccs2)n2ccnc2)cc1	33 strains	>256 µg/mL
O=C(OCC1COC(Cn2ccnc2)(c2ccc(-c3ccccc3)cc2)O1)c1ccccc1	44 strains	15.9 µg/mL
Fc1ccc(COc2ccc(C(c3ccc4ccccc4c3)n3ccnc3)cc2)cc1.O=[N+]([O-])O	17 strains	≥256 µg/mL
CCC1CCCC(CC)C(=O)NCCCC(CC)C(OC2OC(C)C(O)C(N)C2OC2OC(CO)C(O)C(O)C2O)CC1	12 strains	>10.7 µg/mL
O=C(Nc1ccccc1Cn1ccnc1)c1ccc(Cl)cc1[N+](=O)[O-]	27 strains	125 µg/mL
Fc1ccc(C(c2cccc3ccccc23)n2ccnc2)cc1	23 strains	10.4 µg/mL
Clc1ccccc1C(c1nccc2ccccc12)n1ccnc1	44 strains	126.4 µg/mL
Cn1cc(-c2ccccc2)c(C(c2ccc3ccccc3c2)n2ccnc2)c1	33 strains	190 µg/mL
O=C(Nc1cccc(Cn2ccnc2)c1)c1cc([N+](=O)[O-])cc([N+](=O)[O-])c1	27 strains	100 µg/mL
Fc1ccc(COc2ccc(C(c3cccc4ccccc34)n3ccnc3)cc2)c(F)c1.O=[N+]([O-])O	17 strains	≥256 µg/mL
OC[C@H]1CO[C@](Cn2ccnc2)(c2ccc(-c3ccccc3)cc2)O1	44 strains	143.9 µg/mL
CCN1CCC(O)(/C=C/c2ccc(C)cc2)C(C(=O)/C=C/c2ccc(C)cc2)C1	10 strains	90.9 µM
c1ccc(C(c2cccc3ccccc23)n2ccnc2)cc1	23 strains	14.8 µg/mL
Cc1c(CN2CCCC2)cc(-c2ccccc2)n1-c1ccc([N+](=O)[O-])cc1	20 strains	219 µg/mL
Cc1ccc(-c2cn(-c3ccc(C)cc3)c(C)c2C(=O)O)cc1	40 strains	93.79 µg/mL
O=C(Nc1ccc(Cn2ccnc2)cc1)c1cccc(Cl)c1	27 strains	101 µg/mL
Cc1cc(CN(C)C)c(C)n1-c1ccc(Cl)cc1Cl	20 strains	32.8 µg/mL
c1csc(C(c2ccc3ccccc3c2)n2ccnc2)c1	23 strains	8 µg/mL
O=[N+]([O-])c1ccccc1C=Nc1cccc(Cn2ccnc2)c1	27 strains	84.59 µg/mL
Cc1c(C(N)=O)cc(-c2ccc(Cl)cc2)n1-c1ccc(Cl)cc1	20 strains	>200 µg/mL
Cn1cc(-c2ccccc2)c(C(c2cccc3ccccc23)n2ccnc2)c1	33 strains	16.27 µg/mL
Cc1c(Cn2ccnc2)cc(-c2ccccc2)n1-c1ccccc1	20 strains	81.8 µg/mL
Clc1ccc(COC(Cn2ccnc2)c2ccc(Cl)cc2Cl)c(Cl)c1	10 strains	5.66 µg/mL
Cc1ccc(-c2cn(-c3ccc(F)cc3)c(C)c2C(=O)O)cc1	40 strains	73.33 µg/mL
c1ccc(-c2c[nH]cc2C(c2cccc3ccccc23)n2ccnc2)cc1	33 strains	5.65 µg/mL
Cc1c(Cn2ccnc2)cc(-c2ccccc2)n1-c1ccc(Cl)cc1	20 strains	84.1 µg/mL
Clc1ccc(C(c2cccc3ccccc23)n2ccnc2)s1	23 strains	3.46 µg/mL
Cc1c(C(=O)O)c(-c2ccc(Cl)cc2)cn1-c1ccc(Cl)cc1	40 strains	24.9 µg/mL
COc1ccc(C(c2cccc3ccccc23)n2ccnc2)cc1	23 strains	49 µg/mL
Clc1ccc(COc2ccc(C(c3nccc4ccccc34)n3ccnc3)cc2)cc1.O=[N+]([O-])O	17 strains	≥256 µg/mL
O=C(Nc1cccc(Cn2ccnc2)c1)c1ccc(F)cc1	27 strains	133 µg/mL
Clc1ccc(C(c2cccc3ccccc23)n2ccnc2)cc1	23 strains	6.17 µg/mL
CCC1CCCC(CC)C(=O)NCCCC(CC)C(OC2OC(C)C(O)C(N)C2OC2OC(CO)C(OC3OC(CO)C(O)C(O)C3O)C(O)C2O)CC1	12 strains	50.8 µg/mL
Cc1ccc(C(c2cccc3ccccc23)n2ccnc2)cc1	23 strains	12.4 µg/mL
OC[C@@H]1CO[C@](Cn2ccnc2)(c2ccc(-c3ccccc3)cc2)O1	44 strains	102 µg/mL
c1ccc(-c2c[nH]cc2C(c2ccc3ccccc3c2)n2ccnc2)cc1	33 strains	21.61 µg/mL
O=[N+]([O-])O.c1coc(C(c2nccc3ccccc23)n2ccnc2)c1	44 strains	>256 µg/mL
c1ccc(-c2ccc(C(c3cccc4ccccc34)n3ccnc3)cc2)cc1	23 strains	48.3 µg/mL
O=C(Nc1ccccc1Cn1ccnc1)c1ccc([N+](=O)[O-])cc1[N+](=O)[O-]	27 strains	67.77 µg/mL
CCN1CCC(O)(/C=C/c2ccc(Cl)cc2)C(C(=O)/C=C/c2ccc(Cl)cc2)C1	10 strains	11.25 µM

Again, the opening 5 rows:

structure | strain | result
c1ccc(-c2c[nH]cc2C(c2cccs2)n2ccnc2)cc1 | 33 strains | >256 µg/mL
O=C(OCC1COC(Cn2ccnc2)(c2ccc(-c3ccccc3)cc2)O1)c1ccccc1 | 44 strains | 15.9 µg/mL
Fc1ccc(COc2ccc(C(c3ccc4ccccc4c3)n3ccnc3)cc2)cc1.O=[N+]([O-])O | 17 strains | ≥256 µg/mL
CCC1CCCC(CC)C(=O)NCCCC(CC)C(OC2OC(C)C(O)C(N)C2OC2OC(CO)C(O)C(O)C2O)CC1 | 12 strains | >10.7 µg/mL
O=C(Nc1ccccc1Cn1ccnc1)c1ccc(Cl)cc1[N+](=O)[O-] | 27 strains | 125 µg/mL